A mixed list of measured activities; the numbers were collected in NIAID ChemDB.

All rows: toxicity to cultured cells; cell line: WI-38; endpoint: CC50

An empty or dashed field is not shown. CCn: concentration that lowers growth or viability of the cells by n%. a–b is a range or a potency band. Neighbouring rows are from separate reports.

C=CCc1ncn2c(=O)[nH]c(NC(C)=O)nc12 ; result: 400 µg/mL
O=c1[nH]c(=O)n(C2C[C@H](CO)[C@H]2CO)cc1C=CI ; result: >800 µM
NC(=NC1CCC1)c1ccc(N2CCN(c3ccc(C(N)=NC4CCC4)cc3)CC2)cc1 ; result: >5.8 µg/mL
CC[C@H](C)[C@H](N)[C@H](O)n1nc(C)c2c(Cl)c3cc(OC)ccc3nc21 ; result: >100 µg/mL
Nc1ccn(C[C@@H](CO)OCP(=O)(O)O)c(=O)n1 ; result: 10–50 µg/mL
c1ccc2[nH]c(-c3ccc(N4CCN(c5ccc(-c6nc7ccccc7[nH]6)cc5)CC4)cc3)nc2c1 ; result: >71 µg/mL
O=C1CC(CO)=NN1c1ccccc1 ; result: 388 µM
CC(=O)Nc1nc2c(CC(O)CO)ncn2c(=O)[nH]1 ; result: >400 µg/mL
Nc1nc2c(ncn2C[C@@H]2CC[C@H](P(=O)(O)O)O2)c(=O)[nH]1 ; result: 10–50 µg/mL
C=CCc1nc(C)n2c(=O)[nH]c(=S)[nH]c12 ; result: 100 µg/mL
CCCN=C(N)c1ccc(N2CCN(c3ccc(C(N)=NCCC)cc3)CC2)cc1 ; result: 53.9 µg/mL
Nc1nc2c(ncn2C[C@H]2CC[C@H](P(=O)(O)O)O2)c(=O)[nH]1 ; result: >100 µg/mL
CCCCCCCCN=C(N)c1ccc(N2CCN(c3ccc(C(N)=NCCCCCCCC)cc3)CC2)cc1 ; result: 2 µg/mL
CC[C@H](C)C(=O)c1c(O)cc(O)cc1OC/C=C(\C)CCC=C(C)C ; method: sulforhodamine ; result: 8.9 µM

The last 2 rows once more:

smiles | method | result
CCCCCCCCN=C(N)c1ccc(N2CCN(c3ccc(C(N)=NCCCCCCCC)cc3)CC2)cc1 | - | 2 µg/mL
CC[C@H](C)C(=O)c1c(O)cc(O)cc1OC/C=C(\C)CCC=C(C)C | sulforhodamine | 8.9 µM